Results of unrelated studies side by side (data: NIAID ChemDB).

All rows: growth or infection tests; species: HIV-1; endpoint: EC50

Neighbouring rows are from separate reports.

smiles | strain | conditions | changes | cell line | result
O=c1[nH]cnc2c1ncn2[C@H]1CC[C@@H](CO)O1 | IIIB | - | - | MT-4 | 8.4 µM
CCOC(=O)C(O)(c1c[nH]c2cccc([N+](=O)[O-])c12)C(F)(F)F | IIIB | - | - | TZM-bl | 60.7 µM
CCN1c2ncc(NCc3ccc(OCP(=O)(O)O)cc3)cc2C(=O)N(C)c2cccnc21 | - | - | - | - | >5 µM
CC(=O)Oc1ccc(/C=C/C(=O)O[C@H](C(=O)O)[C@H](OC(=O)/C=C/c2ccc(OC(C)=O)c(OC(C)=O)c2)C(=O)O)cc1OC(C)=O | NL4-3 | - | AR117-resistant | MT-4 | >93 µM
CC1=C(C(=O)Nc2ccc(Cl)c(C(=O)OC(C)C)c2)SCCO1 | RF | - | - | H9 | 1 µM
Cc1cn([C@H]2C[C@H](N=[N+]=[N-])[C@@H](CO)O2)c(=O)[nH]c1=O | - | - | - | MT-4 | >0.01 µM
Cc1cn([C@@H]2O[C@H](CO[Si](C)(C)C(C)(C)C)C3(OS(=O)(=O)C=C3N)[C@H]2O[Si](C)(C)C(C)(C)C)c(=O)n(CC(=O)OCc2ccccc2)c1=O | - | - | - | - | 0.03–0.76 µM
Cn1c2ccccc2c2c1cc(C#N)c(=O)n2-c1ccc([N+](=O)[O-])cc1 | HXB2 | - | - | MT-2 | 54.5 µM
Nc1ccn([C@H]2CC[C@@H](CO)O2)c(=O)n1 | Clinical isolate | clinical isolate | RT-I50V K70R I135V T215Y | MT-4 | 0.75 µM
CC(C)(C)NC(=O)[C@H]1N(C(=O)[C@@H](O)[C@H](Cc2ccccc2)NC(=O)[C@H](CC(N)=O)NC(=O)COc2cccc(Nc3ccccc3)c2)CSC1(C)C | IIIB | - | - | CEM + CEM-SS | 0.04 µM
Cc1nnc(C(=O)NC(C)(C)c2nc(C(=O)NCc3ccc(F)cc3)c(O)c(=O)n2C)o1 | NL4-3 | - | - | MDM | 0.022 µM
CC(C)=CCOc1cc(NC(=S)c2ccsc2C)ccc1Cl | - | - | - | Primary lymphocytes + Lymphocytes | 0.002 µg/mL
CC(C)[C@H](NC(=O)OCc1ccccn1)C(=O)N[C@@H](Cc1ccccc1)C(=O)C(F)(F)CCc1ccccc1 | IIIB | - | - | MT-4 | 6.3 µM
Nc1c(-c2ccccn2)n(COCCO)c2ccccc12 | - | - | - | MT-4 | >50 µM
Nc1nc2c(ncn2[C@H]2O[C@@H](CO)C[C@H]2F)c(=O)[nH]1 | - | - | - | PBM | >100 µM
Cc1cn([C@H]2C[C@H](N=[N+]=[N-])[C@@H](CO)O2)c(=O)[nH]c1=O | IIIB | - | - | CEM + CEM-SS | 0.006 µM
CCC[C@@H](c1ccc(C(F)(F)F)cc1)N1CCN(C2(C)CCN(C(=O)c3c(C)ncnc3C)CC2)C[C@@H]1C | JV1083 Clinical isolates | - | - | PBMC | <0.00027 µM
CC(C)c1cc2c(c(O)c1O)[C@@]1(C(=O)O)CCCC(C)(C)C1CC2 | LAI | - | - | MT-2 | 0.047 µM
O=c1[nH]cnc2c1ncn2[C@H]1CC[C@@H](CO)O1 | HX | - | - | HT4LACZ-1 + HT4 LacZ-1 | 6.7 µM
CC(C)[C@H](NC(=O)OCc1ccccc1)C(=O)N[C@@H](Cc1ccccc1)C(=O)C(F)(F)CCc1ccccn1 | IIIB | - | - | MT-4 | 5.7 µM
COC(=O)N[C@H](C(=O)N[C@@H](Cc1ccccc1)[C@@H](O)CN(Cc1ccc(-c2ccccn2)cc1)NC(=O)[C@@H](NC(=O)OC)C(C)(C)C)C(C)(C)C | NL4-3 | - | L10I G48V I54V A71V I84V L90M SQV resistant | MT-4 | >1 µM
Cc1cn([C@@H]2O[C@H](CO[Si](C)(C)C(C)(C)C)C3(OS(=O)(=O)C=C3N)[C@H]2O[Si](C)(C)C(C)(C)C)c(=O)n(CCCN(C)C)c1=O | - | - | - | - | 0.03–0.76 µM
Cc1cn(CC2(COCP(=O)(OC(C)C)OC(C)C)CC=CC2)c(=O)[nH]c1=O | - | - | - | MT-4 | >100 µg/mL
CCOC(=O)/C=C/n1c(=O)c(C)cn([C@@H]2O[C@H](CO[Si](C)(C)C(C)(C)C)C3(OS(=O)(=O)C=C3N)[C@H]2O[Si](C)(C)C(C)(C)C)c1=O | - | - | - | - | 0.03–0.76 µM
Cc1cn([C@H]2C=C[C@@H](CO)O2)c(=O)[nH]c1=O | NL4-3 | - | - | MT-4 | 0.962 µM
COC(=O)C(O)(c1c[nH]c2ccc([N+](=O)[O-])cc12)C(F)(F)F | IIIB | - | - | TZM-bl | 19.6 µM
O=[N+]([O-])c1c(-c2ccccc2)n(COCCO)c2ccccc12 | - | - | - | MT-4 | >154 µM
Cc1cn([C@@H]2O[C@H](CO[Si](C)(C)C(C)(C)C)C3(OS(=O)(=O)C=C3N)[C@H]2O[Si](C)(C)C(C)(C)C)c(=O)n(CC(N)=O)c1=O | - | - | - | - | 0.03–0.76 µM
O=C(/C=C/c1ccc(O)c(O)c1)O[C@@H]1C[C@](OC(=O)/C=C/c2ccc(O)c(O)c2)(C(=O)O)C[C@@H](O)[C@H]1O | LAI | - | - | MT-2 | 4 µM
CC1(Cn2cnc3cnc(Cl)nc32)CC1CO | - | - | - | - | >100 µg/mL
O=C(O)/C=C/c1ccc(O)c(O)c1 | - | - | - | - | >1000 µM
Cc1cn([C@H]2C[C@H](N=[N+]=[N-])[C@@H](CO)O2)c(=O)[nH]c1=O | HX88C (RT-W88C) | - | RT-W88C | HT4LACZ-1 + HT4 LacZ-1 | 0.0097 µM
Nc1ccn([C@H]2CC[C@@H](CO)O2)c(=O)n1 | NL4-3 | - | - | Primary T lymphocytes | 0.081 µM
COC(=O)C(=O)OC1(C(=O)O)C[C@@H](OC(=O)/C=C/c2ccc(O)c(O)c2)C(O)[C@H](OC(=O)/C=C/c2ccc(O)c(O)c2)C1 | LAI | - | - | MT-2 | 7 µM
O=c1[nH]cnc2c1ncn2[C@H]1CC[C@@H](CO)O1 | NL4-3 | - | - | MDM | 1.805 µM
C[C@H](Cn1cnc2c(N)ncnc21)OCP(=O)(O)O | IIIB | - | - | PBMC + H-PBMC | 0.4 µM
CC(C)[C@H](NC(=O)OCc1ccccc1)C(=O)N[C@@H](Cc1ccccc1)[C@@H](O)[C@H](O)[C@H](Cc1ccccc1)NC(=O)[C@@H](NC(=O)OCc1ccccc1)C(C)C | RF | - | - | MT-2 | <0.02 µg/mL
C[C@H](Cn1cnc2c(N)ncnc21)OCP(=O)(O)O | - | - | - | Primary lymphocytes + Lymphocytes | 0.37 µM
COc1ccc(C[C@H](NC(=O)O[C@H]2CCO[C@H]3OCC[C@H]32)[C@H](O)CN(CC(C)C)S(=O)(=O)c2ccc(N)cc2)cc1 | LAI | - | - | MT-2 | <0.01 µM
c1cc(CN2CCCNCCNCCCNCC2)ccc1CN1CCCNCCNCCCNCC1 | - | - | - | MM + M/M | 0.1 µg/mL
Cc1cn([C@H]2C[C@H](N=[N+]=[N-])[C@@H](CO)O2)c(=O)[nH]c1=O | NL4-3:IN7-3) | - | - | MT-2 | 0.03 µM
CNc1ncnc2c1ncn2[C@H]1O[C@@H](CO)C[C@H]1F | - | - | - | PBM | >100 µM
COc1ccc(S(=O)(=O)N(CC(C)C)C[C@@H](O)[C@H](Cc2ccccc2)NC(=O)O[C@H]2CO[C@H]3OCC(F)(F)[C@H]32)cc1 | NL4-3 | - | - | MT-4 | 0.0005 µM
Nc1nc2c(ncn2[C@H]2CO[C@@H](CO)O2)c(=O)[nH]1 | IIIB | - | - | MT-4 | 0.05 µM
COC(=O)Cn1c(=O)c(C)cn([C@@H]2O[C@H](CO[Si](C)(C)C(C)(C)C)C3(OS(=O)(=O)C=C3N)[C@H]2O[Si](C)(C)C(C)(C)C)c1=O | - | - | - | - | 0.03–0.76 µM
Cc1cn([C@H]2C[C@H](N=[N+]=[N-])[C@@H](CO)O2)c(=O)[nH]c1=O | - | - | - | MM + M/M | 0.02 µM
O=c1[nH]cnc2c1ncn2[C@@H]1O[C@@H](CO)C[C@@H]1F | - | - | - | PBM | >100 µM
Cc1cn([C@@H]2O[C@H](CO[Si](C)(C)C(C)(C)C)[C@@]3(OS(=O)(=O)C=C3N)[C@H]2O[Si](C)(C)C(C)(C)C)c(=O)n(/C=C\CO)c1=O | - | - | - | - | 0.03–0.76 µM
Nc1nc2c(ncn2[C@H]2CC[C@@H](CO)O2)c(=O)[nH]1 | IIIB | - | - | CEM | 1.1 µM
Cc1c(Sc2ccccc2)n(COCCO)c(=O)[nH]c1=O | - | - | - | MM + M/M | 0.02 µg/mL
CC(C)OP(=O)(COCC1(Cn2ccc(=O)[nH]c2=O)CC=CC1)OC(C)C | - | - | - | MT-4 | 60 µg/mL
O=[N+]([O-])c1ccccc1S(=O)(=O)c1ccccc1 | RF | - | - | CEM + CEM-SS | 1.95–5.3 µM
Nc1ccn([C@H]2CC[C@@H](CO)O2)c(=O)n1 | G910-6 AZT-resistant (RT D67N K70R T215Y K219Q) | - | RT-D67N K70R T215Y K219Q | MT-2 | 0.46 µM
Cc1cn([C@H]2C[C@H](N=[N+]=[N-])[C@@H](CO)O2)c(=O)[nH]c1=O | - | - | - | - | 0.0005 µg/mL
CO[P@](=O)(c1cc(C)cc(/C=C/C#N)c1)c1c(C(N)=O)[nH]c2ccc(Cl)cc12 | IIIB | - | K103R/V179D/P225H | MT-4 | 0.025 µM
CC(C)=CCN1Cc2cccc3[nH]c(=S)n(c23)C[C@@H]1C | TSAO-m3T-resistant (RT E138K) | - | RT-E138K | CEM | 0.07 µM
Nc1ccn([C@@H]2CC[C@H](CO)O2)c(=O)n1 | LAI | - | - | PBMC | 0.07 µM
O=c1[nH]c(=O)n([C@@H]2O[C@@H](CO)C[C@H]2F)cc1F | - | - | - | PBM | >100 µM
Nc1c(-c2ccccc2)n(COCCO)c2ccccc12 | - | - | - | MT-4 | >105 µM
CCOC(=O)C(O)(c1c[nH]c2ccc(C(=O)OC)cc12)C(F)(F)F | IIIB | - | - | TZM-bl | 22.4 µM
C=C(COCP(=O)(O)O)Cn1cnc2c(=O)[nH]c(N)nc21 | IIIB | - | - | CEM | 7.5 µM
CCCCC#CCSc1ccccc1OC(C)=O | 4602 ritonavir RES | - | - | MT-2 | 5 µM
COC(=O)C(O)(c1c[nH]c2ccc(C=O)cc12)C(F)(F)F | IIIB | - | - | TZM-bl | 49 µM
CC(=O)OCCOCn1c(-c2ccccc2)c([N+](=O)[O-])c2ccccc21 | - | - | - | MT-4 | >200 µM
O=C(/C=C/c1ccc(O)c2c1[C@H](C(=O)O)[C@@H](c1ccc(O)c(O)c1)O2)O[C@H](Cc1ccc(O)c(O)c1)C(=O)O | - | - | - | H9 | 2 µM
O=C(Nc1cc(S(=O)(=O)O)cc2cc(S(=O)(=O)O)c(N=Nc3ccc(N=Nc4c(S(=O)(=O)O)cc5cc(S(=O)(=O)O)cc(NC(=O)c6cccc(Cl)c6Cl)c5c4O)cc3)c(O)c12)c1ccc(Cl)cc1Cl | SF162 | - | - | MONO/MACRO + Monocytes/macrophages | 0.16 µg/mL
CC(C)(C)NC(=O)c1ccccc1SC[C@@H](O)[C@H](Cc1ccccc1)NC(=O)[C@H](CC(N)=O)NC(=O)c1ccc2ccccc2n1 | - | - | - | MT-2 | 0.41 µg/mL
Nc1nc(=O)n([C@H]2O[C@@H](CO)C[C@H]2F)cc1F | - | - | - | PBM | 48 µM
COC(=O)C(O)(c1cn(C(=O)OC(C)(C)C)c2ccccc12)C(F)(F)F | IIIB | - | - | TZM-bl | >22.2 µM
Cc1cn([C@@H]2O[C@H](CO[Si](C)(C)C(C)(C)C)C3(OS(=O)(=O)C=C3N)[C@H]2O[Si](C)(C)C(C)(C)C)c(=O)n(CCc2ccccc2)c1=O | - | - | - | - | 0.03–0.76 µM
CC[C@H](C)[C@H](NC(=O)Cc1ccccn1)C(=O)N[C@@H](Cc1ccccc1)[C@@H](O)[C@H](O)[C@H](Cc1ccccc1)NC(=O)[C@@H](NC(=O)Cc1ccccn1)[C@@H](C)CC | RF | - | - | MT-2 | 0.09 µg/mL
Nc1ccn([C@H]2CC[C@@H](CO)O2)c(=O)n1 | - | - | - | Primary lymphocytes + Lymphocytes | 0.03 µM
CC(=O)OCCOCn1cc(C(C)=O)c2ccccc21 | - | - | - | MT-4 | >200 µM
CC(C)CN(C[C@@H](O)[C@H](Cc1ccccc1)NC(=O)O[C@H]1CO[C@H]2OCC(F)(F)[C@H]21)S(=O)(=O)c1ccc(N)cc1 | NL4-3 | - | L10F M46I I54V V82A LPV resistant | MT-4 | 0.03 µM
CCO/N=C(\c1ccc(Br)cc1)C1CCN(C2(C)CCN(C(=O)c3c(C)cc[n+]([O-])c3C)CC2)CC1 | 301657 Clinical isolates | - | - | PBMC | <0.043 µM
Cc1cn([C@H]2C=C[C@@H](CO)O2)c(=O)[nH]c1=O | - | - | - | Primary lymphocytes + Lymphocytes | 0.8 µM
Cc1cn([C@@H]2O[C@H](CO[Si](C)(C)C(C)(C)C)C3(OS(=O)(=O)C=C3N)[C@H]2O[Si](C)(C)C(C)(C)C)c(=O)n(CCCNC(=O)c2ccc(N=[N+]=[N-])cc2)c1=O | - | - | - | - | 0.03–0.76 µM
Cc1c(O)cccc1C(=O)N[C@@H](CSc1ccccc1)[C@H](O)CN1C[C@H]2CCCC[C@H]2C[C@H]1C(=O)NC(C)(C)C | NL4-3 | - | - | MT-2 | 0.015 µM

The last 4 rows once more:

| smiles | strain | conditions | changes | cell line | result |
|---|---|---|---|---|---|
| CCO/N=C(\c1ccc(Br)cc1)C1CCN(C2(C)CCN(C(=O)c3c(C)cc[n+]([O-])c3C)CC2)CC1 | 301657 Clinical isolates | - | - | PBMC | <0.043 µM |
| Cc1cn([C@H]2C=C[C@@H](CO)O2)c(=O)[nH]c1=O | - | - | - | Primary lymphocytes + Lymphocytes | 0.8 µM |
| Cc1cn([C@@H]2O[C@H](CO[Si](C)(C)C(C)(C)C)C3(OS(=O)(=O)C=C3N)[C@H]2O[Si](C)(C)C(C)(C)C)c(=O)n(CCCNC(=O)c2ccc(N=[N+]=[N-])cc2)c1=O | - | - | - | - | 0.03–0.76 µM |
| Cc1c(O)cccc1C(=O)N[C@@H](CSc1ccccc1)[C@H](O)CN1C[C@H]2CCCC[C@H]2C[C@H]1C(=O)NC(C)(C)C | NL4-3 | - | - | MT-2 | 0.015 µM |

Blank or dashed fields: not listed here. ECn: concentration that inhibits the pathogen or its effect by n%. Two numbers with a dash give a range or band.